In patent publication US20180185408A1, “ANTIFUNGAL NYLON-3 POLYMERS AND COMBINATION THERAPY USING THEM TO TREAT FUNGAL INFECTIONS” (priority 2016, published 2018):
Where “and” joins values, the source holds several entries; their conditions need not be identical. Equal values may be shown once. Read-outs that look alike come from different tables or passages of the source.

Test system: Aspergillus fumigatus
Test: Checkerboard microdilution synergy (FIC)
Format: cell-based
Conditions: for MIC: Aspergillus fumigatus, 48 h; for MIC / MIC azole alone / FICazole / MIC azole combination: 35° C.; for FICazole / MIC azole combination: MM:TM with ITRA
[1] = isolate 08-12-12-13 Cyp51 [TR34/L98H], trial 1, batch 7, 48 hours
[2] = isolate 08-19-02-61 Cyp51 [TR34/L98H], trial 1, batch 7, 48 hours
[3] = isolate 08-19-02-61 Cyp51 [TR34/L98H], trial 2, batch 8, 48 hours
[4] = isolate 08-31-08-91 Cyp51 [TR34/L98H], trial 1, batch 7, 48 hours
[5] = isolate 08-31-08-91 Cyp51 [TR34/L98H], trial 2, batch 8, 48 hours
[6] = isolate 08-36-03-25 Cyp51 [TR34/L98H], trial 1, batch 7, 48 hours
[7] = isolate 08-36-03-25 Cyp51 [TR34/L98H], trial 2, batch 8, 48 hours
[8] = isolate 12-7505220 Cyp51 [TR34/L98H], trial 1, batch 7, 48 hours
[9] = isolate D5 Cyp51 [G54E], trial 1, batch 7, 48 hours
[10] = isolate D5 Cyp51 [G54E], trial 2, batch 8, 48 hours
[11] = isolate D9 Cyp51 [M220K], trial 1, batch 7, 48 hours
[12] = isolate D9 Cyp51 [M220K], trial 2, batch 8, 48 hours

**Q.** CCC(C)n1ncn(-c2ccc(N3CCN(c4ccc(OCC5COC(Cn6cncn6)(c6ccc(Cl)cc6Cl)O5)cc4)CC3)cc2)c1=O (centres unmarked) [Itraconazole, itraconazole] was tested. Which MIC (D7 Cyp51 [WT], ITRA as single agent, OD600, 48 h, read-out: MIC azole alone) did it give?
**A.** 0.75 µg/mL

**Q.** And the MIC (read-out: MIC azole alone, 08-19-02-61 Cyp51 [TR34/L98H], ITRA as single agent, OD600, 48 h)?
**A.** > 48 µg/mL

**Q.** And the MIC (read-out: MIC azole alone, 08-31-08-91 Cyp51 [TR34/L98H], ITRA as single agent, OD600, 48 h)?
**A.** > 48 µg/mL

**Q.** What about the MIC (read-out: MIC azole alone, 08-36-03-25 Cyp51 [TR34/L98H], ITRA as single agent, OD600, 48 h) of the same compound?
**A.** > 48 µg/mL

**Q.** And the MIC (read-out: MIC azole alone, D5 Cyp51 [G54E], ITRA as single agent, OD600, 48 h)?
**A.** > 48 µg/mL

**Q.** What about the MIC (read-out: MIC azole alone, D6 Cyp51 [G54V], ITRA as single agent, OD600, 48 h) of the same compound?
**A.** > 48 µg/mL

**Q.** And the MIC (read-out: MIC azole alone, D9 Cyp51 [M220K], ITRA as single agent, OD600, 48 h)?
**A.** > 48 µg/mL

**Q.** What about the MIC (read-out: MIC azole alone, F11628, ITRA as single agent, OD600, 48 h) of the same compound?
**A.** 68 µM

**Q.** And the MIC (read-out: MIC azole alone, F16216, ITRA as single agent, OD600, 48 h)?
**A.** > 68 µM

**Q.** What about the MIC (read-out: MIC azole alone, MM:TM with ITRA, isolate 08-12-12-13 Cyp51 [TR34/L98H], trial 1, batch 7, 48 hours) of the same compound?
**A.** > 68 µM

**Q.** What about the MIC (read-out: MIC azole alone, MM:TM with ITRA, isolate 08-12-12-13 Cyp51 [TR34/L98H], trial 2, batch 8, 48 hours) of the same compound?
**A.** 17 µM

**Q.** What about the MIC (read-out: MIC azole alone, MM:TM with ITRA, isolate 08-19-02-61 Cyp51 [TR34/L98H], trial 1, batch 7, 48 hours) of the same compound?
**A.** > 68 µM

**Q.** And the MIC (read-out: MIC azole alone, MM:TM with ITRA, isolate 08-19-02-61 Cyp51 [TR34/L98H], trial 2, batch 8, 48 hours)?
**A.** > 68 µM

**Q.** What about the MIC (read-out: MIC azole alone, MM:TM with ITRA, isolate 08-31-08-91 Cyp51 [TR34/L98H], trial 1, batch 7, 48 hours) of the same compound?
**A.** > 68 µM

**Q.** What about the MIC (read-out: MIC azole alone, MM:TM with ITRA, isolate 08-31-08-91 Cyp51 [TR34/L98H], trial 2, batch 8, 48 hours) of the same compound?
**A.** > 68 µM

**Q.** What about the MIC (read-out: MIC azole alone, MM:TM with ITRA, isolate 08-36-03-25 Cyp51 [TR34/L98H], trial 1, batch 7, 48 hours) of the same compound?
**A.** > 68 µM

**Q.** What about the MIC (read-out: MIC azole alone, MM:TM with ITRA, isolate 08-36-03-25 Cyp51 [TR34/L98H], trial 2, batch 8, 48 hours) of the same compound?
**A.** > 68 µM

**Q.** And the MIC (read-out: MIC azole alone, MM:TM with ITRA, isolate 12-7505220 Cyp51 [TR34/L98H], trial 1, batch 7, 48 hours)?
**A.** > 68 µM

**Q.** And the MIC (read-out: MIC azole alone, MM:TM with ITRA, isolate 12-7505220 Cyp51 [TR34/L98H], trial 2, batch 8, 48 hours)?
**A.** 17 µM

**Q.** And the MIC (read-out: MIC azole alone, MM:TM with ITRA, isolate 12-7505446 Cyp51 [TR34/L98H], trial 1, batch 7, 48 hours)?
**A.** 4.25 µM

**Q.** What about the MIC (read-out: MIC azole alone, MM:TM with ITRA, isolate 12-7505446 Cyp51 [TR34/L98H], trial 2, batch 8, 48 hours) of the same compound?
**A.** 34 µM

**Q.** What about the MIC (read-out: MIC azole alone, MM:TM with ITRA, isolate D5 Cyp51 [G54E], trial 1, batch 7, 48 hours) of the same compound?
**A.** > 68 µM

**Q.** What about the MIC (read-out: MIC azole alone, MM:TM with ITRA, isolate D5 Cyp51 [G54E], trial 2, batch 8, 48 hours) of the same compound?
**A.** > 68 µM

**Q.** What about the MIC (read-out: MIC azole alone, MM:TM with ITRA, isolate D6 Cyp51 [G54V], trial 1, batch 7, 48 hours) of the same compound?
**A.** > 68 µM

**Q.** And the MIC (read-out: MIC azole alone, MM:TM with ITRA, isolate D6 Cyp51 [G54V], trial 2, batch 8, 48 hours)?
**A.** 68 µM

**Q.** What about the MIC (read-out: MIC azole alone, MM:TM with ITRA, isolate D9 Cyp51 [M220K], trial 1, batch 7, 48 hours) of the same compound?
**A.** > 68 µM

**Q.** And the MIC (read-out: MIC azole alone, MM:TM with ITRA, isolate D9 Cyp51 [M220K], trial 2, batch 8, 48 hours)?
**A.** > 68 µM

**Q.** And the MIC azole alone (D6 Cyp51 [G54V], ITRA as single agent, OD600, 48 h)?
**A.** 48 µg/mL and 72 µg/mL

**Q.** And the MIC azole alone (F11628, ITRA as single agent, OD600, 48 h)?
**A.** >68.02 µM and 102.04 µM

**Q.** And the FICazole [1]?
**A.** 1.000

**Q.** And the MIC azole combination [1]?
**A.** >68.02 µM

**Q.** What about the MIC azole combination (isolate 08-12-12-13 Cyp51 [TR34/L98H], trial 2, batch 8, 48 hours) of the same compound?
**A.** 4.25 µM

**Q.** What about the FICazole [2] of the same compound?
**A.** 1.000

**Q.** And the MIC azole combination [2]?
**A.** >68.02 µM

**Q.** What about the FICazole [3] of the same compound?
**A.** 0.500

**Q.** And the MIC azole combination [3]?
**A.** 68.02 µM

**Q.** What about the FICazole [4] of the same compound?
**A.** 1.000

**Q.** And the MIC azole combination [4]?
**A.** >68.02 µM

**Q.** What about the FICazole [5] of the same compound?
**A.** 1.000

**Q.** What about the MIC azole combination [5] of the same compound?
**A.** >68.02 µM

**Q.** What about the FICazole [6] of the same compound?
**A.** 1.000

**Q.** And the MIC azole combination [6]?
**A.** >68.02 µM

**Q.** And the FICazole [7]?
**A.** 1.000

**Q.** What about the MIC azole combination [7] of the same compound?
**A.** >68.02 µM

**Q.** And the FICazole [8]?
**A.** 1.000

**Q.** And the MIC azole combination [8]?
**A.** >68.02 µM

**Q.** What about the MIC azole combination (isolate 12-7505220 Cyp51 [TR34/L98H], trial 2, batch 8, 48 hours) of the same compound?
**A.** 4.25 µM

**Q.** And the MIC azole combination (isolate 12-7505446 Cyp51 [TR34/L98H], trial 1, batch 7, 48 hours)?
**A.** 0.27 µM

**Q.** And the MIC azole combination (isolate 12-7505446 Cyp51 [TR34/L98H], trial 2, batch 8, 48 hours)?
**A.** 1.06 µM

**Q.** What about the FICazole [9] of the same compound?
**A.** 1.000

**Q.** What about the MIC azole combination [9] of the same compound?
**A.** >68.02 µM

**Q.** And the FICazole [10]?
**A.** 1.000

**Q.** What about the MIC azole combination [10] of the same compound?
**A.** >68.02 µM

**Q.** And the MIC azole combination (isolate D6 Cyp51 [G54V], trial 1, batch 7, 48 hours)?
**A.** 34.01 µM

**Q.** What about the MIC azole combination (isolate D6 Cyp51 [G54V], trial 2, batch 8, 48 hours) of the same compound?
**A.** 1.06 µM

**Q.** What about the FICazole [11] of the same compound?
**A.** 1.000

**Q.** And the MIC azole combination [11]?
**A.** >68.02 µM

**Q.** What about the FICazole [12] of the same compound?
**A.** 1.000

**Q.** What about the MIC azole combination [12] of the same compound?
**A.** >68.02 µM

**Q.** Which results are given for CC[C@@H]([C@H](C)O)n1ncn(-c2ccc(N3CCN(c4ccc(OC[C@@H]5CO[C@@](Cn6cncn6)(c6ccc(F)cc6F)C5)cc4)CC3)cc2)c1=O [Posaconazole, posaconazole]?
**A.** MIC azole in combination: 0.25 µg/mL; MIC (read-out: MIC azole alone, 08-19-02-61 Cyp51 [TR34/L98H], POS as single agent, OD600, 48 h): 1.5 µg/mL and 2.14 µM; MIC (read-out: MIC azole alone, 08-31-08-91 Cyp51 [TR34/L98H], POS as single agent, OD600, 48 h): 1.5 µg/mL and 2.14 µM; MIC (read-out: MIC azole alone, 12-7505220 Cyp51 [TR34/L98H], POS as single agent, OD600, 48 h): 0.375 µg/mL and 0.54 µM; MIC (read-out: MIC azole alone, D5 Cyp51 [G54E], POS as single agent, OD600, 48 h): 3 µg/mL and 4.28 µM; MIC (read-out: MIC azole alone, D6 Cyp51 [G54V], POS as single agent, OD600, 48 h): 0.75 µg/mL and 1.07 µM
